Laboratory results taken from article PMC9958325 (Nature Communications, 2023).

Experiments:
[1] = tested on: SARS-CoV-2NC928-2N^Omicron_BA.1; experiment: Antiviral efficacy in hACE2 knock-in mice, Omicron BA.1, lung virus titers; details: NC928-2N/Omicron_BA.1, sampling day3, group average of 5 mice
SARS-CoV-2UW-5250^Delta = experiment: Antiviral efficacy in hACE2 knock-in mice, Delta, lung virus titers; details: UW-5250/Delat
[2] = tested on: SARS-CoV-2 Delta, BA.1 and BA.2 variants; experiment: Antiviral efficacy in hACE2 knock-in mice, variants and days pooled (repeated ANOVA); details: log-transformed titers; days and mutant strains fixed effects, individuals random effect; 95%CI
[3] = tested on: SARS-CoV-2NCD1288^Omicron_BA.2; experiment: Antiviral efficacy in hACE2 knock-in mice, Omicron BA.2, lung virus titers

SMILES	lung virus titer, ave of log pfu/g [1] [log pfu/g]	lung virus titer, ave of log pfu/g (SARS-CoV-2UW-5250^Delta; sampling day2, group average of 5 mice) [log pfu/g]	lung virus titer, ave of log pfu/g (SARS-CoV-2UW-5250^Delta; sampling day3, group average of 5 mice) [log pfu/g]	Virus titer compared to the no-drug control (repeated ANOVA) [2]	lung virus titer, ave of log pfu/g ([3]; NCD1288/Omicron_BA.2, sampling day2, group average of 5 mice) [log pfu/g]	lung virus titer, ave of log pfu/g ([3]; NCD1288/Omicron_BA.2, sampling day3, group average of 5 mice) [log pfu/g]
CC(C)(C)[C@H](NC(=O)C(F)(F)F)C(=O)N1C[C@H]2[C@@H]([C@H]1C(=O)N[C@@H](C[C@@H]1CCNC1=O)C(=O)c1nc3c(F)cccc3s1)C2(C)C [TKB245]	3.547	6.24	6.888	-1.34 and -1.34 (95%CI: -1.85, -0.82)	–	–
CC(C)(C)[C@H](NC(=O)C(F)(F)F)C(=O)N1C[C@H]2[C@@H]([C@H]1C(=S)N[C@@H](C[C@@H]1CCNC1=O)C(=O)c1nc3c(F)cccc3s1)C2(C)C [TKB248]	–	–	–	-1.01 and -1.01 (95%CI: -1.41, -0.60)	5.5725	4.9348

Values joined by “and” are separate entries in the source; they are usually repeats but may differ in a detail not shown here. Equal entries are not always repeated.
